This is an account of results in article PMC9603373 (Microbiology Spectrum, 2022).

Data set [1] concerns daptomycin nonsusceptible Enterococcus faecium (NTUH688). Nature of the data set: Rat infective endocarditis model, DNSE.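 For all read-outs here: Catheter-induced aortic valve endocarditis in male Wistar rats, treated 3 days, bacteria counted by plating vegetation and blood homogenates on brain heart infusion agar, control rats given phosphate-buffered saline.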 Type of data set: in vivo. Conditions: MIC 8, group value repeated per rat; for auc_mic: AUC0–24/MIC; for cmax_mic: Cmax/MIC.
The subject of data set [2] is daptomycin-susceptible, dose-dependent Enterococcus faecium (NTUH664). Nature of the data set: Rat infective endocarditis model, DSE.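 For all read-outs here: male Wistar rats with catheter-induced aortic valve endocarditis, dosed for 3 days, CFU counted in vegetation and blood, saline-treated infected controls, vegetation detection limit 2 log10 CFU/g.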 Conditions: MIC 0.5, group value repeated per rat; for auc_mic: AUC0–24/MIC; for cmax_mic: Cmax/MIC.

Turning to `CCCCCCCCCC(=O)N[C@@H](Cc1c[nH]c2ccccc12)C(=O)N[C@H](CC(N)=O)C(=O)N[C@@H](CC(=O)O)C(=O)N[C@@H]1C(=O)NCC(=O)N[C@@H](CCCN)C(=O)N[C@@H](CC(=O)O)C(=O)N[C@H](C)C(=O)N[C@@H](CC(=O)O)C(=O)NCC(=O)N[C@H](CO)C(=O)N[C@@H]([C@H](C)CC(=O)O)C(=O)N[C@@H](CC(=O)c2ccccc2N)C(=O)O[C@@H]1C` [daptomycin, Daptomycin], the auc_mic in data set [1] (45 mg/kg sc) stood at 123; in data set [1] (90 mg/kg sc), 257; in data set [2] (12 mg/kg iv), 228; in data set [2] (45 mg/kg sc) it was 987; in data set [2] (90 mg/kg sc), 2054. For the same molecule, the cmax_mic in data set [1] (45 mg/kg sc) is 15; in data set [1] (90 mg/kg sc), 22; in data set [2] (12 mg/kg iv) it was 106; in data set [2] (45 mg/kg sc), 123; in data set [2] (90 mg/kg sc) it was 179.
